According to PMC11858715 (Molecules, 2025):

Experiment: Fluorescence spectra of peptide solutions in DMSO
Assay type: physicochemical
Conditions: 10^−5 mol L^−1 in 100% DMSO; 25 °C; excitation 280 nm; mean of three measurements
In the case of SHHYSP [S1A2, Ser-His-His-Tyr-Ser-Pro], the “wavelength of fluorescence maximum λmax” value is reported as 319 nm.
For YIYRNYPDF [S2], the “wavelength of fluorescence maximum λmax” value was 317 nm.
In the case of GMMILG [S1], the “wavelength of fluorescence maximum λmax” value is reported as 345 nm.
With SHHYEP [S1A1, Ser-His-His-Tyr-Glu-Pro] the “wavelength of fluorescence maximum λmax” value was 320 nm.

No end group written: not given here.
